{
  "source": "patent US9340616B2",
  "about": "“Methods and compositions for heptameric targeting ligands” (The University of North Carolina at Chapel Hill, priority 2011, dated 2016)",
  "assay_type_in_all_cases": "cell-based",
  "key": {"[1]": {"test_system": "EGFR-negative Jurkat cells", "assay": "Cell surface binding of FITC-labeled ligands, confocal microscopy, Jurkat", "settings": "ligand concentration as high as 100 nM", "procedure": "About 2×10^4 cells were seeded on coverslides and allowed to grow in an appropriate medium for 16 hours. The resulting coverslides were washed with PBS twice, followed by incubation with different concentrations of FITC-labeled monomeric or heptameric targeting ligand for 30 min at room temperature. The coverslides were washed with PBS three times and visualized with a Zeiss LSM 510 confocal microscope.\nApproximately 2×10^4 cells were seeded on coverslips and allowed to grow in the appropriate media for 16 h. The resulting coverslips were washed twice with 1×PBS buffer followed by incubation in different concentrations of FITC labeled monomeric or heptameric targeting ligand for 30 min at room temperature. The coverslips were washed three times with 1×PBS. The resulting samples were visualized by using a Zeiss LSM 510 confocal microscope."}, "[2]": {"test_system": "A431 cells", "assay": "Internalization and co-localization with EEA1, A431", "settings": "FITC-labeled, 10 nM or 100 nM, 2 h, 37° C.; listed as heptameric Z^EGFR", "procedure": "A431 and SKOV3 cells were seeded onto coverslides and grown for 16 hours at 37° C., and incubated with 10 nM or 100 nM of FITC-labeled heptameric Z^EGFR and Z^HER2 for 2 hours at 37° C. After removing unbound heptamers by washing, the cells were fixed with 2% paraformaldehyde in PBS for 15 min at room temperature. After fixation, cells were washed with PBS three times. For immunostaining, blocking solution (PBS with 5% BSA and 0.3% Triton X-100) was added for 1 hour at 4° C. Anti-EEA1 rabbit monoclonal antibody (Cell signaling Technology, Danvers, Mass.) was incubated (1:200) with the cells overnight at 4° C. The resulting cells were rinsed with PBS three times. After incubation with secondary antibody Alexa Fluor 555 conjugated anti Rabbit IgG (Cell signaling technology, Danvers, Mass.) for 1 hour at 4° C., the corresponding cells were rinsed with PBS three times followed by adding antifade reagent to examine the cells with confocal laser microscopy.\nA431 and SK-OV3 cells were seeded onto the coverslips and grown for 16 h at 37° C. FITC-labeled 10 nM or 100 nM of heptameric Z^EGFR and Z^HER2 were incubated for 2 h at 37° C. with A431 and SK-OV3 cells grown on coverslips, respectively. After washing away unbound targeting ligands, the cells were fixed with 2% paraformaldehyde in PBS for 15 min at room temperature. Cells were then washed three times with 1×PBS. […]"}, "[3]": {"test_system": "A431 cells (EGFR positive cells)", "assay": "Cell surface binding of FITC-labeled ligands, confocal microscopy, A431", "settings": "FITC-labeled ligand, 30 min, room temperature"}},
  "data": [
    {"substance": "ZEGFR-Heptamer: Self-assembled heptamer of EGFR-binding Z domain fused through a hinge linker to the AF-Sm1 heptamerization domain, His-tagged", "values": [
      {"measurement": "fluorescence signal (cell binding)", "setting": "[1]", "value": "No detectable fluorescence signal"},
      {"measurement": "internalization and co-localization with EEA1", "setting": "[2]", "value": "efficiently internalized and mostly co-localized with EEA1"}
    ]},
    {"substance": "ZEGFR-Monomer: EGFR-binding Z domain with hinge linker and C-terminal His-tag, constructed without the heptamerization domain", "values": [
      {"measurement": "fluorescence signal (cell binding)", "setting": "[1]", "value": "No detectable fluorescence signal"},
      {"measurement": "fluorescence signal (cell binding)", "setting": "[3]", "value": "signal was evident"}
    ]}
  ]
}
